Pooled drug test results. Numbers come from NIAID ChemDB, via PubChem.

Common to all: tests in culture; organism: Hepatitis B virus; cell line: HepAD38; endpoint: EC50

ECn is the concentration giving n% inhibition of infection, replication or growth. Lines come from different laboratories, so protocols vary. An empty or dashed field is not shown. a–b is a range or a potency band.

smiles	strain or isolate	read by	value
Cc1c(F)cccc1-n1cc(S(=O)(=O)Nc2ccc3c(C(=O)Nc4ccc(F)c(Cl)c4)n(C)nc3c2)cn1	-	PCR	100–1000 µM
Cc1cc(NC(=O)c2c3c(cn2C)S(=O)(=O)NC2CN(C(=O)C(=O)N[C@H](C)C(F)(F)F)CC2CO3)ccc1F	-	PCR	<0.5 µM
CCCCCCCCCCCC(=O)Nc1nc(N)nc2c1ncn2[C@H]1CO[C@@H](COP(=O)(N[C@@H](C)C(=O)OCC)Oc2ccccc2)O1	-	PCR	0.34 µM
Cc1cc(NC(=O)c2c3c(cn2C)S(=O)(=O)NC2(C)CN(C(=O)C(=O)N[C@H](C)C(F)(F)F)CC2CO3)ccc1F	-	PCR	<0.5 µM
Cc1c2c(c(C(=O)Nc3cccc(Cl)c3)n1C)CCC(C)(C)NC2=O	-	PCR	0.05–0.499 µM
Cn1nc2nc(NS(=O)(=O)C3CC3)ccc2c1C(=O)Nc1ccc(F)c(Cl)c1	-	PCR	>1000 µM
CCn1c(C)c2c(c1C(=O)Nc1ccc(F)c(C)c1)CCC(C)(C)NC2=O	-	PCR	<0.05 µM
C[C@@H](NC(=O)C(=O)N1CCC2(COc3c(c(Cl)n(C)c3C(=O)Nc3ccc(F)c(F)c3)S(=O)(=O)N2)C1)C(F)(F)F	Genotype D	PCR	<0.5 µM
C[C@@H](NC(=O)C(=O)N1C[C@H]2COc3c(c(Cl)n(C)c3C(=O)Nc3ccc(F)c(Cl)c3)S(=O)(=O)N[C@H]2C1)C(F)(F)F	-	PCR	<0.5 µM
C[C@@H](NC(=O)C(=O)N1CC2(COc3c(cn(C)c3C(=O)Nc3ccc(F)c(C(F)F)c3)S(=O)(=O)N2)C1)C(F)(F)F	Genotype D	PCR	<0.5 µM
Cc1cc(NC(=O)c2c3c(cn2C)S(=O)(=O)NC2(C)CN(C(=O)C(=O)NC4CC4)CC2CO3)ccc1F	-	PCR	<0.5 µM
C=C1[C@H](CO)[C@@H](O)C[C@@H]1n1cnc2c(=O)[nH]c(N)nc21	Genotype D	fluorescence	0.076 µM
CCCCCCCC(=O)Nc1nc(N)nc2c1ncn2[C@H]1CO[C@@H](COP(=O)(N[C@@H](C)C(=O)OCC)Oc2ccccc2)O1	-	PCR	0.55 µM
C[C@@H](NC(=O)C(=O)N1CC2(COc3c(cn(C)c3C(=O)Nc3ccc(F)c(Cl)c3)S(=O)(=O)N2)C1)C(F)(F)F	Genotype D	PCR	<0.5 µM
COC(=O)C1=C(C)NC(c2ncc(F)cc2F)=NC1c1ccc(F)cc1Cl	-	hybridisation	0.124 µM
Cn1cc(NS(=O)(=O)Nc2ccc3c(C(=O)Nc4ccc(F)c(Cl)c4)n(C)nc3c2)cn1	-	PCR	100–1000 µM
Cc1cccc(NC(=O)c2c3c(c(C)n2C)C(=O)N[C@@H](C)C3)c1F	-	PCR	0.5–1 µM
CCCCCC(=O)Nc1nc(N)nc2c1ncn2[C@H]1CO[C@@H](COP(=O)(N[C@@H](C)C(=O)OCC)Oc2ccccc2)O1	-	PCR	1.3 µM
Cn1cc(NS(=O)(=O)c2ccc3c(C(=O)Nc4ccc(F)c(Cl)c4)n(C)nc3c2)cn1	-	PCR	100–1000 µM
CCCCCCCCCCCCCC(=O)Nc1nc(N)nc2c1ncn2[C@H]1CO[C@@H](COP(=O)(N[C@@H](C)C(=O)OCC)Oc2ccccc2)O1	-	PCR	0.39 µM
Cc1cc(NC(=O)c2c3c(cn2C)S(=O)(=O)N[C@H]2CN(C(=O)C(=O)NC(C)(C)C(F)(F)F)C[C@H]2CO3)ccc1F	-	PCR	<0.5 µM
O=C(N/C(C(=O)N1CCCCC1)=C(/Cl)c1ccccc1)c1ccccc1	-	-	1.9 µM
Cn1cc2c(c1C(=O)Nc1ccc(F)c(C(F)F)c1)OCC1(CN(C(=O)C(=O)NC3CC3)C1)NS2(=O)=O	Genotype D	PCR	<0.5 µM

2 of the rows above, restated:

Cc1c2c(c(C(=O)Nc3cccc(Cl)c3)n1C)CCC(C)(C)NC2=O ; read by: PCR ; value: 0.05–0.499 µM
Cc1cc(NC(=O)c2c3c(cn2C)S(=O)(=O)NC2(C)CN(C(=O)C(=O)N[C@H](C)C(F)(F)F)CC2CO3)ccc1F ; read by: PCR ; value: <0.5 µM